## Sequence variants of PSTVd loop 15 after infection

Values reported by Wu et al. 2024 (doi:10.1371/journal.ppat.1012142).

The pool varies loop 15 of the PSTVd intermediate strain in the pattern GGAAACCGNNNNNNC; wild type is GGAAACCGCUACUAC (upper and lower strand joined, each 5' to 3', the first 7 letters being the upper strand, closing pairs included).

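Three N. benthamiana plants were inoculated with the whole mutant pool. Progeny were sequenced from the inoculated region (day 5), the margin of the inoculated leaf (day 10) and systemic leaves (day 12).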

Values are reads per thousand in the sample; higher means more abundant, 0 means not found.
Each value is the mean of three plants.
"Pool" is the share in the plasmid pool used as inoculum, on the same scale.
The inoculated region was read from the minus strand, the other sites from the plus strand.
IR is the inoculated region, LM the leaf margin, Sys the systemic leaves.
For reference, wild type rose from 33.9 per thousand in the pool to 202, 200, 159 (inoculated region), 724, 746, 710 (leaf margin) and 856, 883, 880 (systemic leaves).
Sequences that differ at fixed positions probably stem from PCR or sequencing errors, and defective variants can be carried along by functional ones.
With 43,870-66,106 reads a sample, very low values are single reads.

For GGAAACCGGAGUUGC (pool 0.288) the result was IR 0.0829; LM 0.00668; Sys 0. For GGAAACCGCUCAACC (pool 0.256) the result was IR 0.0607; LM 0; Sys 0. For GGAAACCGCUAGAAC (pool 0.176) the result was IR 0.395; LM 0.120; Sys 0.0720. GGAAACCGCCCUAGC (pool 0.224) read IR 0.0749; LM 0; Sys 0. GGAAACCGCGGCAAC (pool 0.224) read IR 0.112; LM 0.0121; Sys 0. GGAAACCGAUCCUAC (pool 0.240) gave IR 0.368; LM 0.134; Sys 0.0566. GGAAACCGCCGUGUC (pool 0.304) gave IR 0.275; LM 0.00539; Sys 0.00504.

GGAAACCGUAACCAC (pool 0.256) gave IR 0.338; LM 0.0960; Sys 0.0420. GGAAACCGAUUCUCC (pool 0.240) gave IR 0.0633; LM 0.0141; Sys 0.00537. With GGAAACCGUACACAC (pool 0.272) the assay gave IR 0.100; LM 0; Sys 0.00537. With GGAAACCGCGACCUC (pool 0.192) the assay gave IR 0.363; LM 0.0980; Sys 0.0215. With GGAAACCGAUCAUAC (pool 0.176) the assay gave IR 0.274; LM 0.0611; Sys 0.0543. GGAAACCGCCACUGC (pool 0.304) read IR 0.364; LM 0.152; Sys 0.0484. GGAAACCGUUAGUAC (pool 0.352) gave IR 0.274; LM 0.0780; Sys 0.0291.

GGAAACCGCUCAUCC (pool 0.224) read IR 0.0388; LM 0.0195; Sys 0.0130. For GGAAACCGCGGAGCC (pool 0.256) the result was IR 0.286; LM 0.0200; Sys 0. GGAAACCGUGAGAGC (pool 0.128) read IR 0.299; LM 0.109; Sys 0.0215. GGAAACCGUCGGAAC (pool 0.160) read IR 0.0687; LM 0.0121; Sys 0. GGAAACCGAUCGCAC (pool 0.208) gave IR 0.0956; LM 0; Sys 0. GGAAACCGGACUCUC (pool 0.160) gave IR 0.107; LM 0.0121; Sys 0. With GGAAACCGGCGACUC (pool 0.224) the assay gave IR 0.0785; LM 0.00668; Sys 0.

For GGAAACCGGCAGAAC (pool 0.304) the result was IR 0.303; LM 0.0687; Sys 0.0700. With GGAAACCGAUACUUC (pool 0.128) the assay gave IR 0.299; LM 0.158; Sys 0.0701. GGAAACCGCCUCAGC (pool 0.288) gave IR 0.142; LM 0.0121; Sys 0.0158. GGAAACCGGAUGGAC (pool 0.288) gave IR 0.0920; LM 0; Sys 0. GGAAACCGGGCGAUC (pool 0.256) gave IR 0.114; LM 0; Sys 0.00537. With GGAAACCGUCCCUCC (pool 0.208) the assay gave IR 0.0897; LM 0.00668; Sys 0. GGAAACCGCGUCCUC (pool 0.240) read IR 0.143; LM 0.0141; Sys 0.

GGAAACCGUACCCAC (pool 0.192) read IR 0.0919; LM 0.0134; Sys 0. For GGAAACCGUCGGGAC (pool 0.208) the result was IR 0.0911; LM 0.0134; Sys 0. For GGAAACCGCCAUCCC (pool 0.240) the result was IR 0.0859; LM 0; Sys 0.00537. With GGAAACCGAUGUGCC (pool 0.240) the assay gave IR 0.0785; LM 0; Sys 0. With GGAAACCGUGUGUAC (pool 0.336) the assay gave IR 0.384; LM 0.169; Sys 0.0809. GGAAACCGUAAGUUC (pool 0.256) read IR 0.287; LM 0.138; Sys 0.0591. GGAAACCGUUAACAC (pool 0.128) gave IR 0.319; LM 0.106; Sys 0.0676.

For GGAAACCGUCGUUGC (pool 0.240) the result was IR 0.118; LM 0.0228; Sys 0.00537. With GGAAACCGAACGAUC (pool 0.320) the assay gave IR 0.0837; LM 0; Sys 0. GGAAACCGGUGGCCC (pool 0.240) read IR 0.108; LM 0.00668; Sys 0.00537. GGAAACCGUGCUAGC (pool 0.224) read IR 0.108; LM 0; Sys 0.0130.

The last 2 entries again:

| sequence | pool | IR | LM | Sys |
|---|---|---|---|---|
| GGAAACCGGUGGCCC | 0.240 | 0.108 | 0.00668 | 0.00537 |
| GGAAACCGUGCUAGC | 0.224 | 0.108 | 0 | 0.0130 |